Experimental data reported in US10947274B1 (priority 2018, dated 2021).

Amino acid sequences for entries named in this document (tags omitted). Residues count along the entry.
UniProt Q9GZZ6, 25-450 limits assumed: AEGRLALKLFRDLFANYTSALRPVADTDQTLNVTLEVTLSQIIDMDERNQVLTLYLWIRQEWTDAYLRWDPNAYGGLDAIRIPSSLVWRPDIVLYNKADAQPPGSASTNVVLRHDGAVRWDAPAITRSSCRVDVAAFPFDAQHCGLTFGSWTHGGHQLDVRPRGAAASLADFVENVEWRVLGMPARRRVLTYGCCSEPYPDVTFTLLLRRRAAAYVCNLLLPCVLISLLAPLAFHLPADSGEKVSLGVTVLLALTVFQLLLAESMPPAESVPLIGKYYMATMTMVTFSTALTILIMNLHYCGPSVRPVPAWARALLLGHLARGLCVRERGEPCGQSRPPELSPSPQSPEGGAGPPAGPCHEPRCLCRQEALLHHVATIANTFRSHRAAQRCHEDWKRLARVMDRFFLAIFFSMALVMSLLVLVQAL
UniProt Q9UGM1, 26-479 limits assumed: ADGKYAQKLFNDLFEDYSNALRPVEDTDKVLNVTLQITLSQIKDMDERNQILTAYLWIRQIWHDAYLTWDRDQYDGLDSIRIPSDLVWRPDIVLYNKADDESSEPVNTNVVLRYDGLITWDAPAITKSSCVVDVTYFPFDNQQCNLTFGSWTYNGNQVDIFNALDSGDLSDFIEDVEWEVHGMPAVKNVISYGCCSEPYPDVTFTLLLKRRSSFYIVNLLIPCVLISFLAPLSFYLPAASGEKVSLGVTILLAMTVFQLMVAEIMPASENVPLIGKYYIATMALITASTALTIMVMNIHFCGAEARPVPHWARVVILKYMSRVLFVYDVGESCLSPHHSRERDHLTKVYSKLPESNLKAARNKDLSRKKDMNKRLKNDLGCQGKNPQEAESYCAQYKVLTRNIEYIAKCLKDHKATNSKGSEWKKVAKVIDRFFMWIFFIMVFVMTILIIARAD

Biological target: human α9α10 nAChR (Homo sapiens, UniProt Q9GZZ6+Q9UGM1)
Experiment: Block of acetylcholine response at cloned human α9α10 nAChR expressed in Xenopus oocytes (voltage clamp)
[1] = Table 1, human α9α10 nAChR in Xenopus oocytes
[2] = average response at peptide concentration 100 nM
[3] = average response at peptide concentration 1000 nM

C[C@@H](O)[C@@H]1NC(=O)[C@@H]2CSSC(C)(C)[C@H](C(=O)N[C@@H](Cc3ccc(O)cc3)C(=O)O)NC(=O)[C@H](CCC(N)=O)NC(=O)[C@H](Cc3ccc(O)c(I)c3)NC(=O)[C@H](CCCNC(N)=O)NC(=O)[C@H](CSSC[C@H](NC(=O)CN)C(=O)N2)NC(=O)[C@H](CCCNC(=N)N)NC(=O)[C@@H]2CCCN2C(=O)[C@H](CC(=O)O)NC1=O
IC50 [1]: > 100 nM
Ave Resp. (Concen., nM) [2]: 20%

C[C@@H](O)[C@@H]1NC(=O)[C@H]2NC(=O)[C@@H](NC(=O)CN)CSSC[C@H](NC(=O)[C@H](CCCNC(=N)N)NC(=O)[C@@H]3CCCN3C(=O)[C@H](CC(=O)O)NC1=O)C(=O)N[C@@H](CCCNC(=N)N)C(=O)N[C@@H](Cc1ccc(O)c(I)c1)C(=O)N[C@@H](CCC(N)=O)C(=O)N[C@H](C(=O)N[C@H](CC(=O)N[C@@H](CCCNC(=N)N)C(=O)O)Cc1ccc(O)cc1)CSSC2(C)C
IC50 (human α9α10 nAChR): 0.055 nM

C[C@@H](O)[C@@H]1NC(=O)[C@@H]2CSSC[C@@H](C(=O)N[C@@H](Cc3ccc(O)cc3)C(=O)O)NC(=O)[C@H](CCC(N)=O)NC(=O)[C@H](Cc3ccc(O)c(I)c3)NC(=O)[C@H](CCCNC(N)=O)NC(=O)[C@H](CSSC(C)(C)[C@@H](NC(=O)CN)C(=O)N2)NC(=O)[C@H](CCCNC(=N)N)NC(=O)[C@@H]2CCCN2C(=O)[C@H](CC(=O)O)NC1=O
IC50 [1]: > 100 nM
Ave Resp. (Concen., nM) [2]: 31%

C[C@@H](O)[C@@H]1NC(=O)[C@@H]2CSSC[C@@H](C(=O)N[C@@H](Cc3ccc(O)cc3)C(=O)O)NC(=O)[C@H](CCC(N)=O)NC(=O)[C@H](Cc3ccc(O)c(I)c3)NC(=O)[C@H](CCCNC(N)=O)NC(=O)[C@@H](NC(=O)[C@H](CCCNC(=N)N)NC(=O)[C@@H]3CCCN3C(=O)[C@H](CC(=O)O)NC1=O)C(C)(C)SSC(C)(C)[C@H](NC(=O)CN)C(=O)N2
% block (Table 6, at 1000 nM): (19 ± 2.4%
Ave Resp. (Concen., nM) [3]: 19%

C[C@@H](O)[C@@H]1NC(=O)[C@H]2NC(=O)[C@@H](NC(=O)CN)CSSC[C@H](NC(=O)[C@H](CCCNC(=N)N)NC(=O)[C@@H]3CCCN3C(=O)[C@H](CC(=O)O)NC1=O)C(=O)N[C@@H](CCCNC(=N)N)C(=O)N[C@@H](Cc1ccc(O)c(I)c1)C(=O)N[C@@H](CCC(N)=O)C(=O)N[C@H](C(=O)N[C@H](CC(=O)N[C@H](CCCNC(=N)N)C(=O)O)Cc1ccc(O)cc1)CSSC2(C)C
IC50 [1]: 0.31 nM

C[C@@H](O)[C@@H]1NC(=O)[C@@H]2NC(=O)[C@@H](NC(=O)CN)CSSC[C@H](NC(=O)[C@H](CCCNC(=N)N)NC(=O)[C@@H]3CCCN3C(=O)[C@H](CC(=O)O)NC1=O)C(=O)N[C@@H](CCCNC(N)=O)C(=O)N[C@@H](Cc1ccc(O)c(I)c1)C(=O)N[C@@H](CCC(N)=O)C(=O)N[C@H](C(=O)N[C@@H](Cc1ccc(O)cc1)C(=O)O)CSSC2(C)C
IC50 [1]: > 1000 nM
Ave Resp. (Concen., nM) [3]: 34%

C[C@@H](O)[C@@H]1NC(=O)[C@@H]2CSSC[C@@H](C(=O)N[C@@H](Cc3ccc(O)cc3)C(=O)O)NC(=O)[C@H](CCC(N)=O)NC(=O)[C@H](Cc3ccc(O)c(I)c3)NC(=O)[C@H](CCCNC(N)=O)NC(=O)[C@@H](NC(=O)[C@H](CCCNC(=N)N)NC(=O)[C@@H]3CCCN3C(=O)[C@H](CC(=O)O)NC1=O)C(C)(C)SSC[C@H](NC(=O)CN)C(=O)N2
IC50 [1]: > 1000 nM
% response (Table 6, at 1000 nM): (9.6 ± 4.3%
IC50 (Table 6, human α9α10 nAChR): > 1000 nM
Ave Resp. (Concen., nM) [3]: 9.6%

C[C@@H](O)[C@@H]1NC(=O)[C@H]2NC(=O)[C@@H](NC(=O)CN)CSSC[C@H](NC(=O)[C@H](CCCNC(=N)N)NC(=O)[C@@H]3CCCN3C(=O)[C@H](CC(=O)O)NC1=O)C(=O)N[C@@H](CCCNC(N)=O)C(=O)N[C@@H](Cc1ccc(O)c(I)c1)C(=O)N[C@@H](CCC(N)=O)C(=O)N[C@H](C(=O)N[C@@H](Cc1ccc(O)cc1)C(=O)N[C@@H](CCCNC(=N)N)C(=O)O)CSSC2(C)C
IC50 [1]: 1.3 nM

C[C@@H](O)[C@@H]1NC(=O)[C@H]2NC(=O)[C@@H](NC(=O)CN)CSSC[C@H](NC(=O)[C@H](CCCNC(=N)N)NC(=O)[C@@H]3CCCN3C(=O)[C@H](CC(=O)O)NC1=O)C(=O)N[C@@H](CCCNC(N)=O)C(=O)N[C@@H](Cc1ccc(O)c(I)c1)C(=O)N[C@@H](CCC(N)=O)C(=O)N[C@H](C(=O)N[C@H](Cc1ccc(O)cc1)C(=O)N[C@H](CCCNC(=N)N)C(=O)O)CSSC2(C)C
IC50 [1]: 6.3 nM
